Source: publication PMC11303703 (Scientific Reports, 2024)

Amino acid sequences for entries named in this document (tags omitted). Residues count along the entry.
UniProt O12158, 1144-1431 limits assumed: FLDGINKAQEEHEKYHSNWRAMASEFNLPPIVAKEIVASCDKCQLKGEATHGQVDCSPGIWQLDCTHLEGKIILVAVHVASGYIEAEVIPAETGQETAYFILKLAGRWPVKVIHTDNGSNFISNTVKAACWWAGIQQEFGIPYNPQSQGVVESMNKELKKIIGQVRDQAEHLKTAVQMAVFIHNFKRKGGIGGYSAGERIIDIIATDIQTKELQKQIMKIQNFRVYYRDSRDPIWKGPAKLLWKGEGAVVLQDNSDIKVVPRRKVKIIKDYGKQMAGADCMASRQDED

Biological target: HIV-1 subtype C integrase (Human immunodeficiency virus type 1 group M subtype C, UniProt O12158)
Experiment: HIV-1 integrase strand transfer reaction assay
Type: biochemical
Conditions: read-out: Anti-HIV IC50; HIV-1 IN strand transfer; n = 3

L-chicoric acid
IC50: 8.099 ± 0.009 nM
